{"source": "patent US11413279B2", "about": "“Methods and compositions for the antiviral use of synthetic lysine analogs and mimetics” (priority 2017, dated 2022)", "key": {"[1]": {"system": "Human Immunodeficiency Virus Type 1 (HIV-1)", "settings": "high virus inocula; for Output Viral Titer (Log10TCID50) / Titer (Log10TCID50/mL) / Reduction (%): contact time 48 ± 8 hours"}, "[2]": {"system": "Herpes Simplex Virus Type 2 (HSV-2)"}, "[3]": {"system": "Herpes Simplex Virus Type 1 (HSV-1)", "settings": "tranexamic acid 2.0% (w/v); high virus inocula; vs input virus control average 6.46"}}, "note": "Several values for one entry are separate records, joined by “and”; a condition that tells them apart may be missing. Identical values can stand only once. Like-named read-outs stand apart in the source and are kept apart here."}
{"smiles": "NC[C@H]1CC[C@H](C(=O)O)CC1", "note": "[Tranexamic Acid, tranexamic acid]", "values": [{"measurement": "Output Viral Titer (Log10TCID50)", "setting": "[1]; tranexamic acid 2.0% (w/v)", "value": "5.83 Log10TCID50 and 6.01 Log10TCID50"}, {"measurement": "Titer (Log10TCID50/mL)", "setting": "[1]; tranexamic acid 2.0% (w/v)", "value": "5.83 ± 0.00 Log10TCID50/mL and 6.01 ± 0.09 Log10TCID50/mL and 6.01 ± 0.11 Log10TCID50/mL"}, {"measurement": "Reduction (%)", "setting": "[1]; tranexamic acid 2.0% (w/v), listed as tranexamic acid", "value": 41.1, "unit": "%"}, {"measurement": "Output Viral Titer (Log10TCID50)", "setting": "[1]; tranexamic acid 3.0% (w/v)", "value": "5.83 Log10TCID50 and 5.71 Log10TCID50 and 6.01 Log10TCID50"}, {"measurement": "Reduction (%)", "setting": "[1]; tranexamic acid 3.0% (w/v)", "value": 55.3, "unit": "%"}, {"measurement": "Titer (Log10TCID50/mL)", "setting": "[1]; tranexamic acid 3.0% (w/v)", "value": "5.83 ± 0.00 Log10TCID50/mL and 5.71 ± 0.10 Log10TCID50/mL and 6.01 ± 0.09 Log10TCID50/mL"}, {"measurement": "Reduction (%)", "setting": "[1]; tranexamic acid 4.0% (w/v)", "value": "94.2% and 95.6% and 97.1%"}, {"measurement": "Log10 Reduction", "setting": "[1]; tranexamic acid 4.0% (w/v), vs input virus control average 6.06", "value": "1.24 Log10 and 1.36 Log10 and 1.54 Log10"}, {"measurement": "Log10 Reduction", "setting": "[2]; tranexamic acid 0.5% (w/v), low virus inocula, vs input virus control average 6.22", "value": "0.68 Log10 and 0.45 Log10 and 0.51 Log10"}, {"measurement": "Log10 Reduction", "setting": "[2]; tranexamic acid 1.0% (w/v), high virus inocula, vs input virus control average 7.83", "value": "0.21 Log10 and 0.39 Log10 and 0.45 Log10"}, {"measurement": "Log10 Reduction", "setting": "[2]; tranexamic acid 1.0% (w/v), low virus inocula, vs input virus control average 6.22", "value": "0.62 Log10 and 0.39 Log10 and 0.33 Log10"}, {"measurement": "Log10 Reduction", "setting": "[3]", "value": "0.75 Log10 and 1.04 Log10"}]}
